Assay results: EP1350523B1 (priority 1992, dated 1994)

Legend:
[1] = tested on: A375 marker-positive cells; conditions: 5 minute exposure
[2] = tested on: intimal smooth muscle cells; test: Intimal smooth muscle proliferation after balloon catheter trauma, single intra-artery infusion; conditions: score 1+ (minimal) to 4+ (maximal); 5 weeks after trauma; control treatments
[3] = tested on: B054 arterial smooth muscle cells; conditions: 5 minute exposure; for protein synthesis, long-term: recovery period
M14 (melanoma) cells = test: MTT assay of cellular metabolic activity; conditions: 24 hours exposure, 16-18 hours recovery period
[4] = tested on: HT29 cells (colon carcinoma); test: MTT assay of cellular metabolic activity; conditions: 24 hours exposure, 16-18 hours recovery period
[5] = tested on: BO54 (smooth muscle) cells; test: MTT assay of cellular metabolic activity; conditions: 24 hours exposure, 16-18 hours recovery period
[6] = tested on: HT29 marker-negative cells; conditions: 5 minute exposure
[7] = 3H-leucine over the next 4 hours

## Roridin A
[1]; [7]
  protein synthesis, short-term effect: non-specifically inhibitory
[1]; 16-18 hour recovery period, then 4 hour 3H-leucine
  protein synthesis, long-term effect: manifest even after a 16-18 hour recovery period
[2]
  INTIMAL SMC HYPERTROPHY* ave. (range): 4 (4)
[3]; 50ng/ml
  protein synthesis, long-term: 98 % of control
  protein synthesis, short-term: 90 % of control
[3]; 100ng/ml
  protein synthesis, long-term: 46 % of control
  protein synthesis, short-term: 66 % of control
[3]; 200ng/ml
  protein synthesis, long-term: 27 % of control
  protein synthesis, short-term: 60 % of control
M14 (melanoma) cells
  concentration at which inhibitory effects on metabolic activity were observed: > 10 ng/mL
[4]
  concentration at which inhibitory effects on metabolic activity were observed: > 10 ng/mL
[5]
  concentration at which inhibitory effects on metabolic activity were observed: > 10 ng/mL
[6]; [7]
  protein synthesis, short-term effect: dose-response inhibition
[6]; 16-18 hours recovery period, then 4 hour 3H-leucine
  protein synthesis, long-term effect: still manifest after the 16-18 hours recovery period

Where two headings read alike, the source gives them in different places.
